Compound potency records, mixed from different reports. Data source: NIAID ChemDB in PubChem.

Common to all: whole-cell or culture tests; organism: Toxoplasma gondii; endpoint: EC50

ECn is the concentration giving n% inhibition of infection, replication or growth. Blank or dashed fields: not listed here. Neighbouring rows are from separate reports.

smiles	cell line	strain	value
CCCN(CCC)c1c([N+](=O)[O-])cc(C(F)(F)F)cc1[N+](=O)[O-]	Fibroblast	-	0.3 µM
CC(=O)O/N=C1/C(c2c(O)[nH]c3ccccc23)=Nc2ccccc21	HFF	ATCC 50839	0.07 µg/mL
COc1c(N2C[C@@H]3C(N)[C@@H]3C2)c(F)cc2c(=O)c(C(=O)O)cn(-c3ccc(F)cc3F)c12	MRC-5	RH	32 µM
OCCOCCN1CCN(C2=Nc3ccccc3Sc3ccccc32)CC1	HFF	-	18.6 µg/mL
CC[C@H]1OC(=O)[C@H](C)[C@@H](O[C@H]2C[C@@](C)(OC)[C@@H](O)[C@H](C)O2)[C@H](C)[C@@H](O[C@@H]2O[C@H](C)C[C@H](N(C)C)[C@H]2O)[C@](C)(O)C[C@@H](C)/C(=N\OCOCCOC)[C@H](C)[C@@H](O)[C@]1(C)O	MRC-5	RH	1.34 µg/mL
C[C@@H]1CC[C@H]2[C@@H](C)C(=O)O[C@@H]3OC4(C)CC[C@@H]1[C@]32OO4	HFF	-	2.3 µg/mL
COC(=O)Nc1nc2ccc(C(=O)c3cccs3)cc2[nH]1	-	RH	<10 µM
C[C@H]1[C@@H](CCCO)O[C@@H]2OC3(C)CC[C@H]4[C@H](C)CC[C@@H]1[C@@]24OO3	HFF	-	0.5 µg/mL
COc1c(N2C[C@@H]3C(CN)[C@@H]3C2)c(F)cc2c(=O)c(C(=O)O)cn(-c3ccc(F)cc3F)c12	MRC-5	RH	37 µM
O[C@]12C=C(c3nccc4c3[nH]c3ccccc34)[C@@H]3CCN(CCCC/C=C/CC1)C[C@@]31C[C@@H]3/C=C\CCCCN3C12	HFF	-	<0.1 µM
CCOC(=O)C1C(c2ccc(Cl)cc2)CC(c2ccc(OC)cc2)=CC12NCCN2	HFF	RH	0.0097 µM
CC(=O)O[C@H]1C(=O)[C@@]2(C)[C@H]([C@H](OC(=O)c3ccccc3)[C@]3(O)C[C@H](OC(=O)[C@H](O)[C@@H](NC(=O)c4ccccc4)c4ccccc4)C(C)=C1C3(C)C)[C@]1(OC(C)=O)CO[C@@H]1C[C@@H]2O	-	RH	<2 µM
CCOC(=O)C1C(c2ccc(F)cc2)CC(c2ccccc2)=CC12NCCN2	HFF	RH	0.0097 µM
Nc1ccc(S(=O)(=O)Nc2ncccn2)cc1	-	-	298 µM
CCOC(=O)C1C(c2ccccc2)CC(c2ccc(Cl)cc2)=CC12NCCN2	HFF	RH	0.0097 µM
Nc1ccc(S(=O)(=O)Nc2cc(F)cc(F)c2)cc1	-	-	42.7 µM
CC[C@@]1(C)NC(=O)[C@H](CCCCCC(=O)[C@H](C)O[Si](C)(C)C(C)(C)C)NC(=O)[C@H]2C[C@H](C)CN2C(=O)C(Cc2ccccc2)NC1=O	HFF	RH	>0.09 µM
CN(C)CCCN1c2ccccc2Sc2ccc(Cl)cc21	HFF	-	2.6 µg/mL
Oc1cccc2c1[nH]c1c(C3=C[C@]4(O)C/C=C/CCCCCN5CC[C@@H]3[C@]3(C[C@@H]6/C=C\CCCCN6C34)C5)nccc12	HFF	-	<1 µM
CC[C@]1(C)NC(=O)[C@H](CCCCCC(=O)[C@H](C)O)NC(=O)[C@H]2C[C@H](C)CN2C(=O)C(Cc2ccccc2)NC1=O	HFF	RH	0.0097 µM
CCCCCCN(CC1=C(O)c2ccccc2C(=O)C1=O)Cc1ccccc1	-	PLK	1.2 µM
CC[C@H]1OC(=O)[C@H](C)C(=O)[C@H](C)[C@@H](O[C@@H]2O[C@H](C)C[C@H](N(C)C)[C@H]2O)[C@](C)(OC)C[C@@H](C)C(=O)[C@H](C)[C@H]2N(CCCCn3cnc(-c4cccnc4)c3)C(=O)O[C@]12C	HFF	RH	≤0.05 µg/mL
CO[C@@H]1[C@@H](O[C@@H]2O[C@H](C)[C@@H](O[C@H]3C[C@@](C)(O)[C@@H](O)[C@H](C)O3)[C@H](N(C)C)[C@H]2O)[C@@H](CC=O)C[C@@H](C)[C@@H](O[C@H]2CC[C@H](N(C)C)[C@H](C)O2)/C=C/C=C/C[C@@H](C)OC(=O)C[C@H]1O	-	-	<4 µg/mL
Cc1nc2n(c(=O)c1CCN1CCC(c3noc4cc(F)ccc34)CC1)CC(O)CC2	HFF	-	20.1 µg/mL
Nc1ccc(S(=O)(=O)Nc2cc(Cl)cc(Cl)c2)cc1	-	-	37 µM
O=Nc1c(-c2c(O)[nH]c3ccc(F)cc23)[nH]c2ccccc12	HFF	ATCC 50839	0.2 µg/mL
C[C@H]1[C@@H](CCCC(=O)c2ccccc2Br)O[C@@H]2OC3(C)CC[C@H]4[C@H](C)CC[C@@H]1[C@@]24OO3	HFF	-	0.6 µg/mL
O=Nc1c(-c2c(O)[nH]c3ccc(Br)cc23)[nH]c2ccccc12	HFF	ATCC 50839	0.6 µg/mL
CCCN(CCC)c1c([N+](=O)[O-])cc(S(N)(=O)=O)cc1[N+](=O)[O-]	-	RH	0.3 µM
COc1cc(Cc2cnc(N)nc2N)cc(OC)c1OC	-	-	0.008 µM